Assay [1] deals with FLAG-tagged FMDV 3AB1(R16A/L19S), in E. coli membranes (foot-and-mouth disease virus | foot-and-mouth disease virus strain C-S8c1). As to the kind of experiment: pull-down.
Assay [2] concerns the target FLAG-tagged FMDV 3AB1(P6S/R9A), in E. coli membranes (foot-and-mouth disease virus | foot-and-mouth disease virus strain C-S8c1). As to the kind of experiment: pull-down.
The target of assay [3] is FMDV 3Dpol as coated on the ELISA plate (foot-and-mouth disease virus). Briefly: ELISA. A general note: An ELISA detects its analyte on a solid surface through an enzyme-linked reagent.

On to “FMDV 3Dpol with 6xHis tag in the C-terminus (3DpolHis) (enzyme)”, for which the loss of the ability to bind 3Dpol in assay [1] is over 95%. Also, the binding level compared to the wild-type in assay [2] is 30%.

In assay [3], GST-3B1(R16A/L19S) (peptide) registered a binding in comparison to WT 3B1 of 30%.

(Values after PMC10174528, “Dual role of the foot-and-mouth disease virus 3B1 protein in the replication complex: As protein primer and as an essential component to recruit 3D^pol to membranes” (2023).)
